The target of experiment [1] is neurotensin receptors (HT-29 cells) (Homo sapiens, UniProt P30989). Briefly: Desensitization of neurotensin receptor activation (calcium mobilization after pre-exposure). As to conditions: for DC50/EC50: ratio of desensitization to agonist potency; for DC50: 10 min pre-exposure (10 μM–100 pM), wash, 15 min without peptide, re-exposure to same peptide at 1 μM, calcium mobilization, quadruplicate experiments. Type of experiment: cell-based. A general note: A change in cytosolic calcium serves as a functional read-out for many receptors and channels.

The chains behind the UniProt entries cited, without tags or fusion partners.
UniProt P30989, whole entry, looked up: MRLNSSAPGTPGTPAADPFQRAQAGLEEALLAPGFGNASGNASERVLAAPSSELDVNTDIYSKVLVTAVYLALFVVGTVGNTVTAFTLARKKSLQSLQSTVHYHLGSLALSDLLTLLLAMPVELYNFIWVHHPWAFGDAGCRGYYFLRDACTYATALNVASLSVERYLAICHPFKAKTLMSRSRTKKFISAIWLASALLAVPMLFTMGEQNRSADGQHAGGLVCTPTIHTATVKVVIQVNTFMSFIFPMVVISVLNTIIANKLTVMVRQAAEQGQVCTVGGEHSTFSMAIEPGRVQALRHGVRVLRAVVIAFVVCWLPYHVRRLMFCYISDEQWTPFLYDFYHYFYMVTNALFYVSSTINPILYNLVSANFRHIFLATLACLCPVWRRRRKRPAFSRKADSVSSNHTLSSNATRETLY

A further experiment deals with NTS1 (HT-29 cells) (Homo sapiens, UniProt P30989). Nature of the experiment: Calcium activation assay (intracellular calcium mobilization). Type of experiment: cell-based. The note with it: Fluo-4-NW calcium fluorescence, peptide 10 μM–10 pM, % of 1 μM peak response, quadruplicate experiments.

For the molecule `CCCCCCCCCCCCCCCC(=O)NCCCC[C@H](NC(=O)[C@H](CCCCN)NC(=O)[C@H](CC(N)=O)NC(=O)[C@H](CO)NC(=O)CNC(=O)CNC(=O)[C@H](CCC(=O)O)NC(=O)[C@H](CCC(=O)O)NC(=O)[C@H](CO)NC(=O)[C@@H]1CCC(=O)N1)C(=O)N[C@@H](CCCCN)C(=O)N[C@@H](CCCCN)C(=O)N1CCC[C@H]1C(=O)N[C@@H](Cc1ccc(O)cc1)C(=O)N[C@H](C(=O)N[C@@H](CC(C)C)C(=O)O)[C@@H](C)CC`, in experiment [1], the DC50/EC50 was 0.1.
As usually defined, the EC50 is the midpoint of the concentration-response curve. Turning to `CC[C@H](C)[C@H](NC(=O)[C@H](Cc1ccc(O)cc1)NC(=O)[C@@H]1CCCN1C(=O)[C@H](CCCCN)NC(=O)[C@H](CCCCN)NC(=O)[C@@H](NC(=O)[C@H](C)NC(=O)[C@H](CC(N)=O)NC(=O)[C@H](CO)NC(=O)CNC(=O)CNC(=O)[C@H](CCC(=O)O)NC(=O)[C@H](CCC(=O)O)NC(=O)[C@H](CO)NC(=O)[C@@H]1CCC(=O)N1)[C@@H](C)O)C(=O)N[C@@H](CC(C)C)C(=O)O`, the EC50 at NTS1 (HT-29 cells) is 0.0011 µM. For the same molecule, in experiment [1], the DC50 was 0.144 µM and the DC50/EC50 turned out to be 131.
On the same counts, the results for `CC[C@H](C)[C@H](NC(=O)[C@H](Cc1ccc(O)cc1)NC(=O)[C@@H]1CCCN1C(=O)[C@H](CCCCN)NC(=O)[C@H](CCCCN)NC(=O)[C@@H](NC(=O)[C@H](C)NC(=O)[C@H](CC(N)=O)NC(=O)[C@H](CCC(=O)O)NC(=O)[C@H](CCC(=O)O)NC(=O)[C@H](CO)NC(=O)[C@@H]1CCC(=O)N1)[C@@H](C)O)C(=O)N[C@@H](CC(C)C)C(=O)O` are 0.015 µM, 0.329 µM and 22.
With `CC[C@H](C)[C@H](NC(=O)[C@H](Cc1ccc(O)cc1)NC(=O)[C@@H]1CCCN1C(=O)[C@H](CCCCN)NC[C@@H](N)CCCCN)C(=O)N[C@@H](CC(C)C)C(=O)O`, the concentration giving a half-maximal response (EC50) at NTS1 (HT-29 cells) came to 0.0011 µM. The DC50 in experiment [1] is 0.0118 µM.
Turning to `CC[C@H](C)[C@H](NC(=O)[C@H](Cc1ccc(O)cc1)NC(=O)[C@@H]1CCCN1C(=O)[C@H](CCCCN)NC(=O)[C@H](CCCCN)NC(=O)[C@@H](NC(=O)[C@H](C)NC(=O)[C@H](CC(N)=O)NC(=O)[C@H](CO)NC(=O)CCCCCCNC(=O)[C@H](CCC(=O)O)NC(=O)[C@H](CCC(=O)O)NC(=O)[C@H](CO)NC(=O)[C@@H]1CCC(=O)N1)[C@@H](C)O)C(=O)N[C@@H](CC(C)C)C(=O)O`, in experiment [1], the DC50/EC50 is 168.
